PubChem BioAssay AID624099 | ICCB-Longwood, 2012
The whole screen tested about 21,000 reagents; below is an unselected part. 497 of them (2.4%) count as active. 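Higher z means weaker E2 silencing; only reporter increases were scored, and knock-downs that hurt cell survival may mask genuine repressor factors.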 Unmarked entries are inactive. Reagent sequences are not shown.

Screen: 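Host factors E2 relies on to silence an HPV18 LCR reporter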 (primary screen)
Cells: human C33A cervical carcinoma cells (HPV-negative) stably expressing BPV1 E2 and an HPV18 LCR luciferase reporter
Knock-down reagent: siRNA pool against human genes, 40 nM
Timing: 72 h
Measurement: 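Per-well luciferase luminescence, z-scored on each plate against the plate mean and SD with control wells left out, then averaged across three replicate plates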
Direction: mean z-score and z-score: higher = stronger reporter signal, weaker E2 silencing
Call rule: 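Hit if mean z-score reaches 2 and two or more of three replicate z-scores also reach 2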

gene knocked down | mean z-score | z-score, replicate A | z-score, replicate B | z-score, replicate C
ATG13 | -1.78 | -1.88 | -1.85 | -1.62
AGR2 | -0.05 | 0.01 | -0.06 | -0.09
TTC38 | 0.2 | 0.13 | -0.12 | 0.6
DNAJB4 | 0.4 | 0.57 | 0.27 | 0.35
PPM1J | 0.04 | 0.01 | -0.04 | 0.16
MYL12B | -0.34 | -0.44 | -0.46 | -0.13
BTN2A2 | -0.45 | -0.38 | -0.5 | -0.47
RASAL3 | 0.68 | 0.64 | 0.97 | 0.43
PRIM2 | 1.66 | 1.77 | 1.69 | 1.53
CDH13 | 0.29 | 0.44 | 0.48 | -0.04
LOC387705 (retired record) | 0.06 | -0.23 | 0.13 | 0.26
CPNE7 | -0.24 | -0.36 | -0.15 | -0.21
PCNA | 1.65 | 1.72 | 1.59 | 1.63
OR7C2 | 0.4 | 0.91 | 0.12 | 0.17
CEP15 | 1.19 | 0.93 | 1.14 | 1.49
EP400 | 5.34 (active) | 5.36 | 4.74 | 5.92
CREM | -0.76 | -0.75 | -0.78 | -0.73
ITFG2 | 1.56 | 1.72 | 1.48 | 1.48
YAP1 | -0.68 | -0.2 | -0.96 | -0.89
TMIE | -0.03 | -0.39 | 0.08 | 0.21
LOC285703 (retired record) | 0.54 | 0.79 | 0.35 | 0.47
TDRD12 | -1.45 | -1.31 | -1.26 | -1.79
ERP29 | -0.93 | -0.74 | -1.23 | -0.81
FGD1 | 0.08 | -0.27 | 0.42 | 0.1
SAMHD1 | 2.02 (active) | 2.14 | 1.86 | 2.07
DGAT2-DT | -0.03 | 0.2 | 0.01 | -0.29
BORCS7 | 1.64 | 1.82 | 1.76 | 1.35
DNASE1L3 | 0.42 | 0.26 | 0.71 | 0.29
DNAJC8 | 0.66 | 0.65 | 0.9 | 0.44
CAVIN4 | -0.92 | -0.78 | -1.1 | -0.87
MKRN3 | -0.7 | -0.71 | -0.47 | -0.9
RPSAP32 | 0.23 | 0.5 | 0.07 | 0.11
COMMD7 | -1.24 | -0.48 | -1.08 | -2.15
BAGE4 | -0.48 | -0.8 | -0.34 | -0.31
INSR | 0.58 | 0.7 | 0.38 | 0.67
MAP2K1 | -0.48 | -0.39 | -0.41 | -0.64
LOC145780 (retired record) | -0.1 | -0.31 | 0.04 | -0.03
ACP3 | -0.47 | -0.43 | -0.62 | -0.35
APOB | -0.53 | -0.18 | -0.8 | -0.63
DMC1 | -0.61 | -0.2 | -0.88 | -0.75
C2orf42 | 1.22 | 0.82 | 1.33 | 1.53
ZNF212 | 0.57 | 0.75 | 0.56 | 0.39
POLR3B | 1.81 | 1.6 | 2 | 1.82
SPRED2 | 1.11 | 1.18 | 1.26 | 0.9
C1orf115 | -0.6 | -0.28 | -0.79 | -0.72
NTRK3 | 0.36 | 0.82 | 0.17 | 0.08
CAMK2A | -0.78 | -1.05 | -0.69 | -0.59
LOC391429 (retired record) | -0.36 | -0.2 | -0.38 | -0.5
FAM234B | -0.32 | -0.34 | -0.12 | -0.51
FBXW4P1 | -0.41 | -0.19 | -0.53 | -0.5
TEX264 | 1.89 | 2.47 | 1.47 | 1.73
AGFG1 | -0.21 | -0.26 | -0.09 | -0.29
RPS12 | -1.87 | -1.98 | -1.75 | -1.89
DNAJC18 | 0.08 | 0.63 | -0.36 | -0.04
UBQLNL | -1.25 | -1.11 | -1.33 | -1.29
AGPAT1 | 0.26 | 0.08 | 0.49 | 0.22
TMEM64 | -0.6 | -0.36 | -0.71 | -0.72
